Data as given in US20250099433A1, “COMPOSITION AND METHOD FOR TREATMENT OF GRAM NEGATIVE BACTERIAL INFECTION” (The Research Foundation for the State University of New York, priority 2021, published 2025).
Values after ≈ are worked out from the molar mass of the structure shown.

What was measured:
P. aeruginosa PAO1 [1] = settings: Walkup 2015; cited from earlier work
[2] = tested on: P. aeruginosa and Klebsiella pneumonia infection; settings: cited from earlier work
P. aeruginosa PAO1 [3] = assay: MIC by microbroth dilution, P. aeruginosa PAO1; settings: wild-type P. aeruginosa PAO1
[4] = tested on: efflux-pump mutant strain (ΔMexABCDXY) (paEP); settings: Walkup 2015; cited from earlier work

COc1ccc(-c2ccn(CC[C@](C)(C(=O)NO)S(C)(=O)=O)c(=O)c2)c(F)c1
MIC PAO1 (P. aeruginosa PAO1 [1]): 0.6 µM (≈ 0.247 µg/mL)
in vivo antibacterial activity in animal models [2]: in vivo antibacterial activity
MIC (μM) (PAO1) (P. aeruginosa PAO1 [3]): 0.625 µM (≈ 0.258 µg/mL)
MIC pump mutant [4]: 0.018 µM (≈ 0.00742 µg/mL)
